Measured values from several laboratories, pooled; numbers as filed in NIAID ChemDB.

Common to all: tests in culture; agent: HIV-1; cells: MT-4; read-out: fold resistance

Blank or dashed fields: not listed here. Fold resistance has wild type as its base. Rows are shuffled and stem from different studies.

SMILES	strain	mutations	read by	result
O=C1c2ccccc2C(=O)N1CCOC(=S)N(C(=O)c1ccc(Cl)cc1)c1ccc(Cl)cc1	IIIB	RT-K103R V179D P225H	cytopathic effect / MTT	>4000
Cc1cn([C@H]2C[C@H](N=[N+]=[N-])[C@@H](CO)O2)c(=O)[nH]c1=O	HXB2-D184+294 (RT M184V P294S)	RT-M184V P294S	RT activity	1.4
CC(C)CN(C[C@@H](O)[C@H](Cc1ccccc1)NC(=O)[C@H](CC(N)=O)NC(=O)c1ccc2ccccc2n1)C(=O)NC(C)(C)C	NL4-3	PR-L10R L63P	p24	1
CCCc1nnc(C[C@H](C[C@H](O)CN2CCN(C(C)(C)c3ncc(-c4cncc(OC)c4)o3)C[C@H]2C(=O)NCC(F)(F)F)C(=O)N[C@H]2c3ccccc3OC[C@H]2O)o1	K-60 Clinical isolate	PR-L10I M46I I54V Q58E L63P I64V V77I V82F I84V L90M I93L	p24	1
O=C1c2ccccc2C(=O)N1CCOC(=S)N(C(=O)c1cccs1)c1ccc([N+](=O)[O-])cc1	N119 nevirapine-resistant (RT Y181C)	RT-Y181C	cytopathic effect / MTT	0.109
CC(C)(c1ncc(-c2ccc(Cl)cc2)o1)N1CCN(C[C@@H](O)C[C@@H](Cc2nnco2)C(=O)N[C@H]2c3ccccc3OC[C@H]2O)[C@H](C(=O)NCC(F)(F)F)C1	K-60 Clinical isolate	PR-L10I M46I I54V Q58E L63P I64V V77I V82F I84V L90M I93L	p24	0.504
Cc1cn([C@H]2C=C[C@@H](COC(=O)NCCSC(=O)OC[C@@H]3CC[C@H](n4cnc5c(=O)[nH]cnc54)O3)O2)c(=O)[nH]c1=O	EFV-resistant (RT K103R V179D P225H)	RT-K103R V179D P225H	cytopathic effect / MTT	>0.47
CN[C@H]1CO[C@@H]2OCC[C@H](OC(=O)N[C@@H](Cc3ccccc3)[C@H](O)CN(CC(C)C)S(=O)(=O)c3ccc4nc(NC5CC5)sc4c3)[C@@H]21	NL4-3	L10F L33I M36I M46I I54V K55R I62V L63P A71V G73S V82T	p24 / luminescence	0.7
CC(C)(c1ncc(-c2ccc(F)cc2)o1)N1CCN(C[C@@H](O)C[C@@H](Cc2nnc(-c3ccccc3)o2)C(=O)N[C@H]2c3ccccc3OC[C@H]2O)[C@H](C(=O)NCC(F)(F)F)C1	K-60 Clinical isolate	PR-L10I M46I I54V Q58E L63P I64V V77I V82F I84V L90M I93L	p24	1
CCN[C@H]1CO[C@@H]2OCC[C@H](OC(=O)N[C@@H](Cc3cccc(OC)c3)[C@H](O)CN(CC(C)C)S(=O)(=O)c3ccc4nc(NC(C)C)sc4c3)[C@@H]21	NL4-3	L10F L33I M36I M46I I54V K55R I62V L63P A71V G73S V82T	p24 / luminescence	0.9
CCn1c(=O)c(C)cn([C@@H]2O[C@H](CO[Si](C)(C)C(C)(C)C)C3(OS(=O)(=O)C=C3N)[C@H]2O[Si](C)(C)C(C)(C)C)c1=O	Recombinant mutant	RT-A98S	cytopathic effect / MTT	0.4
COC(=O)NCCCC(C)(C)CN(C[C@@H](O)[C@H](Cc1ccccc1)NC(=O)O[C@H]1CO[C@H]2OCC[C@H]21)S(=O)(=O)c1ccc(N)cc1	Multi-PI-resistant EP13	PR-M46I L63P A71V V82F/L I84V	cytopathic effect / propidium iodide	1.48
COc1ccc2c(c1)N(C(=O)OC(C)C)[C@@H](CSC)C(=S)N2	Recombinant mutant	RT-A98S E138A	cytopathic effect / MTT	1.6
CC(C)CN(C[C@@H](O)[C@H](Cc1ccccc1)NC(=O)O[C@H]1CCOC1)S(=O)(=O)c1ccc(N)cc1	NL4-3	L23I E34Q K43I M46I I50L G51A L63P A71V V82A T91A	p24 / luminescence	7.1
CCCc1nnc(C[C@H](C[C@H](O)CN2CCN(C(C)(C)c3ncc(-c4ccc(F)cc4)o3)C[C@H]2C(=O)NCC(F)(F)F)C(=O)N[C@H]2c3ccccc3OC[C@H]2O)o1	K-60 Clinical isolate	PR-L10I M46I I54V Q58E L63P I64V V77I V82F I84V L90M I93L	p24	1
CC(C)(CCCNS(C)(=O)=O)CN(C[C@@H](O)[C@H](Cc1ccccc1)NC(=O)O[C@H]1CO[C@H]2OCC[C@H]21)S(=O)(=O)c1ccc2c(c1)OCO2	Multi-PI-resistant EP13	PR-M46I L63P A71V V82F/L I84V	cytopathic effect / propidium iodide	1.42
O=C(N[C@H]1c2ccccc2OC[C@H]1O)[C@H](Cc1nnc(-c2ccccc2)o1)C[C@H](O)CN1CCN(Cc2ccc(-c3ccc(Cl)cc3)o2)C[C@H]1C(=O)NCC(F)(F)F	V-18 Clinical isolate	PR-L10I M36I N37D M46I R57K L63P A71V G73S I84V L90M I93L	p24	16
CC(C)CN(C[C@@H](O)[C@H](Cc1ccccc1)NC(=O)O[C@H]1CCOC1)S(=O)(=O)c1ccc(N)cc1	NL4-3	PR-D30N	p24	0.25
Cc1cn([C@@H]2O[C@H](CO[Si](C)(C)C(C)(C)C)C3(OS(=O)(=O)C=C3N)[C@H]2O[Si](C)(C)C(C)(C)C)c(=O)n(C)c1=O	Recombinant mutant	RT-E138A	cytopathic effect / MTT	5.7
COc1ccc(S(=O)(=O)N(CC(C)C)C[C@@H](O)[C@H](Cc2ccccc2)NC(=O)O[C@H]2CCO[C@H]3OCC[C@H]32)cc1	NL4-3	L10I I15V K20R L24I V32I M36I M46I I54V I62V L63P K70Q V82A L88M	p24 / luminescence	97
CC(C)(C)NC(=O)[C@@H]1C[C@@H]2CCCC[C@@H]2CN1C[C@@H](O)[C@H](Cc1ccccc1)NC(=O)[C@H](CC(N)=O)NC(=O)c1ccc2ccccc2n1	NL4-3	PR-L10R L63P V82T	p24	1
CC(=O)NCCCC(C)(C)CN(C[C@@H](O)[C@H](Cc1ccccc1)NC(=O)O[C@H]1CO[C@H]2OCC[C@H]21)S(=O)(=O)c1ccc2c(c1)OCO2	Multi-PI-resistant EP13	PR-M46I L63P A71V V82F/L I84V	cytopathic effect / propidium iodide	1.3
Cc1cn([C@H]2C[C@H](N=[N+]=[N-])[C@@H](COC(=O)NCCSC(=O)OC[C@@H]3CC[C@H](n4cnc5c(=O)[nH]cnc54)O3)O2)c(=O)[nH]c1=O	NNRTI-resistant (RT K103N Y181C)	RT-K103N Y181C	cytopathic effect / MTT	1.2
CC(C)(c1ncc(-c2ccc(F)cc2)o1)N1CCN(C[C@@H](O)C[C@@H](Cc2nnco2)C(=O)N[C@H]2c3ccccc3OC[C@H]2O)[C@H](C(=O)NCC(F)(F)F)C1	K-60 Clinical isolate	PR-L10I M46I I54V Q58E L63P I64V V77I V82F I84V L90M I93L	p24	1
CC(C)=CCN1c2cc(Cl)cc3[nH]c(=S)n(c23)C[C@@H]1C		RT-L74V		0.5
COc1ccc(S(=O)(=O)N(CC(C)C)C[C@@H](O)[C@H](Cc2ccccc2)NC(=O)O[C@H]2CCO[C@H]3OC[C@H](O)[C@H]32)cc1	NL4-3	L10I I54V K20R L24I V32I L33F M36I M46I I54M L63P K70Q V82I I84V L89M	p24 / luminescence	166
COC(=O)NCCCCC(C)(C)CN(C[C@@H](O)[C@H](Cc1ccccc1)NC(=O)O[C@H]1CO[C@H]2OCC[C@H]21)S(=O)(=O)c1ccc2c(c1)OCO2	Multi-PI-resistant EP13	PR-M46I L63P A71V V82F/L I84V	cytopathic effect / propidium iodide	9.375
Nc1ccn([C@H]2CC[C@@H](CO)O2)c(=O)n1	Recombinant mutant	RT-A98S E138A	cytopathic effect / MTT	0.6
O=C1c2ccccc2C(=O)N1CCOC(=S)N(C(=O)c1ccccc1)c1ccccc1	A17	RT-K103N Y181C	cytopathic effect / MTT	>250
Cc1cn([C@H]2C=C[C@@H](CO)O2)c(=O)[nH]c1=O	NNRTI-resistant (RT K103N Y181C)	RT-K103N Y181C	cytopathic effect / MTT	1.06
O=C1c2ccccc2C(=O)N1CCOC(=S)N(C(=O)c1ccco1)c1ccc([N+](=O)[O-])cc1	A17	RT-K103N Y181C	cytopathic effect / MTT	>12500
COC(=O)NCCCCCC(C)(C)CN(C[C@@H](O)[C@H](Cc1ccccc1)NC(=O)O[C@H]1CO[C@H]2OCC[C@H]21)S(=O)(=O)c1ccc2c(c1)OCO2	Multi-PI-resistant EP13	PR-M46I L63P A71V V82F/L I84V	cytopathic effect / propidium iodide	8.36

2 of the rows above, restated:

| SMILES | strain | mutations | read by | result |
|---|---|---|---|---|
| CC(C)CN(C[C@@H](O)[C@H](Cc1ccccc1)NC(=O)[C@H](CC(N)=O)NC(=O)c1ccc2ccccc2n1)C(=O)NC(C)(C)C | NL4-3 | PR-L10R L63P | p24 | 1 |
| Cc1cn([C@H]2C[C@H](N=[N+]=[N-])[C@@H](CO)O2)c(=O)[nH]c1=O | HXB2-D184+294 (RT M184V P294S) | RT-M184V P294S | RT activity | 1.4 |